Results published in patent publication EP0497988A1, “ANTIVIRAL AGENT” (DAINIPPON INK AND CHEMICALS, INC., priority 1990, dated 1992).

Each substance was assayed on HTLV-IIIB (assay: Anti-HIV activity by MTT (tetrazolium) method in MT-4 cells). Details: selectivity index CC₅₀/EC₅₀.
Format: cell-based
Method: Test Method: MMT (the tetrazolium assay) method Cell: MT-4 Cell Virus: HTLV-IIIB (Infection : 3 x 10⁵ plaque forming units (PFU)/ml) MT-4 cells were suspended in a culture medium at 2 x 10⁵ cells/ml and infected with HIV-IIIB at a multiplicity of infection of 0.01. Immediately after infection, 100µl of cell suspension was placed into microtiter tray wells containing various concentrations of the test samples. At the same time, the mock-infected cells were also cultured together with the samples in order to assess the cell toxicity of the test samples to the MT-4 cell. They were cultured in a CO₂-gas incubator at 37°C for 5 days, and the number of viable cells were determined by the MTT method. Antiviral activity is expressed by EC₅₀ (50% effective concentration), the concentration at which the agent protects 50% of the cells from injury by HIV infection, and cell toxicity by CC₅₀ (50% cell toxicity concentration), the concentration at which 50% of the cells are injured by the agent. Selectivity is measured by a selectivity index (S.I), which is expressed by CC₅₀/EC₅₀ (R. Pauwels, et al., J. of […], vol. 20, 1988, pp. 309-321).

Substance	SI
sodium salt of octadecyl maltotrioside sulfate [MTS-1]	> 1
sodium salt of n-hexadecyl β-laminaripentaoside sulfate [LPS-2]	= 27
sodium salt of octadecyl maltoheptaoside sulfate [MHS-1]	> 1
sodium salt of n-decyl β-laminaripentaoside sulfate [LPS-3]	> 15
sodium salt of octadecyl maltohexaoside sulfate [MHS-3]	56
